1 compound from PMC6021681, “Characterization of the Anti-Hepatitis C Virus Activity of New Nonpeptidic Small-Molecule Cyclophilin Inhibitors with the Potential for Broad Anti-Flaviviridae Activity” (Antimicrobial Agents and Chemotherapy, 2018) can be followed below.

What all share (format): cell-based, hepatitis C virus
Details in all cases: EC50 relative to wild type

The subject of test [1] is genotype 1b HCV-SGR(L31V/Y93H). From the text: . After linearization with ScaI and in vitro transcription, the genotype 1b HCV-SGR was transfected into Huh7.5 cells.
Test [2] has as its system genotype 1b HCV-SGR I133V. On the procedure:
(§1) Candidate resistance-associated substitutions (RASs) were introduced into a wild-type genotype 1b HCV-SGR containing the luciferase reporter gene by means of site-directed mutagenesis (QuikChange II XL site-directed mutagenesis kit; Agilent Technologies, Santa Clara, CA, USA). […] The replication capacity of the RAS-containing HCV-SGR was assessed by comparing luciferase activities at 4 h and 96 h posttransfection and expressed as a percentage of the wild-type replication capacity.

Test [3] has as its system genotype 1b HCV-SGR Y321H. How it is done: as §1
The subject of test [4] is genotype 1b HCV-SGR E442G. How it is done: as §1
Test [5] relates to genotype 1b HCV-SGR D320E. How it is done:
as §1

In test [6] the test system is genotype 1b HCV-SGR R304W. How it is done:
as §1

For test [7], the system named is genotype 1b HCV-SGR K308I. On the procedure: as §1
In test [8] the test system is genotype 1b HCV-SGR L303P. On the procedure: as §1

In the case of `C/C=C/C[C@@H](C)[C@@H](O)[C@H]1C(=O)N[C@@H](CC)C(=O)N(C)[C@H](C)C(=O)N(CC)[C@@H](C(C)C)C(=O)N[C@@H](C(C)C)C(=O)N(C)[C@@H](CC(C)C)C(=O)N[C@@H](C)C(=O)N[C@H](C)C(=O)N(C)[C@@H](CC(C)C)C(=O)N(C)[C@@H](CC(C)C)C(=O)N(C)[C@@H](C(C)C)C(=O)N1C` [ALV, Alisporivir, reference compound], the “Fold change, L31V/Y93H” value in test [1] is given as 0.5. For the same compound, the “Fold change, I133V” value in test [2] is 0.9. The “Fold change, Y321H” value in test [3] stood at 2.2. The “Fold change, E442G” value in test [4] was found to be 1.1. Besides, the “Fold change, D320E” value in test [5] came out at 4.4. Also, the “Fold change, R304W” value in test [6] came out at 1.1. Besides, the “Fold change, K308I” value in test [7] was determined as 1.3. In addition, the “Fold change, L303P” value in test [8] came to 1.3.
